Experiment [1] in a line: Selectivity ratio of IC50 for mouse alpha1beta1deltaepsilon nACh receptor to IC50 for rat alpha9alpha10 nACh receptor.
In experiment [2] the target is Nicotinic acetylcholine receptor alpha1/beta1/epsilon/delta (Mus musculus) (UniProt P04756+P09690+P02716+P20782). Nature of the experiment: Antagonist activity at mouse alpha1beta1deltaepsilon nACh receptor expressed in Xenopus oocyte assessed as inhibition of acetylcholine-induced response at -70 mV holding potential by measuring ratio of IC50 by voltage-clamp based electrophysiological assay relative to GeXIVA. The conditions noted are these: filed as antagonist.

Protein sequences, listed by entry. Tags and fused reporters are not part of them. Residues count along the entry.
UniProt P04756, 21-457 limits assumed: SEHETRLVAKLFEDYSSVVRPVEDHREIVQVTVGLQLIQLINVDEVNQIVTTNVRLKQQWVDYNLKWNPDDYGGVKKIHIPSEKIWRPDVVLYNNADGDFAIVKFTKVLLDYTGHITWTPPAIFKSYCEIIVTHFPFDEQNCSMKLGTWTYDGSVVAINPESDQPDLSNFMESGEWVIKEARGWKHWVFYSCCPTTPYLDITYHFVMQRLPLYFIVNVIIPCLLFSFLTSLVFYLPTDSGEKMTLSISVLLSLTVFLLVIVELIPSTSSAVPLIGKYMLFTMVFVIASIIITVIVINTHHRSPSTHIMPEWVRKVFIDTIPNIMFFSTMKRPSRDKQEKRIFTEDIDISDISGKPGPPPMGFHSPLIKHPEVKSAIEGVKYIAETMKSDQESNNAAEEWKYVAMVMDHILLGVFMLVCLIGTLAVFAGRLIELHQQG
UniProt P09690, 24-501 partner limits assumed: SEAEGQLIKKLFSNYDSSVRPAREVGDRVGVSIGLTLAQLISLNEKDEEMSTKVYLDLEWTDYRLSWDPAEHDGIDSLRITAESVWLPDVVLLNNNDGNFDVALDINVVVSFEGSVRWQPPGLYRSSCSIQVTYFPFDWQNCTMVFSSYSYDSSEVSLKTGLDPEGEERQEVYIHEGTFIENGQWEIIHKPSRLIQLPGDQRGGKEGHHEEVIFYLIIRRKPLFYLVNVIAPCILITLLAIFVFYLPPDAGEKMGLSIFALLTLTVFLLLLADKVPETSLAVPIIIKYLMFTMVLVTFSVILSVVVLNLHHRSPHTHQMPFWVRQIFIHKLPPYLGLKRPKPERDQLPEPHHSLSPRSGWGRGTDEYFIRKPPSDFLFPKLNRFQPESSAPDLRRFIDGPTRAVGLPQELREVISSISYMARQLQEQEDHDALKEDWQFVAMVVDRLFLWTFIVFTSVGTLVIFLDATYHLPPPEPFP
UniProt P02716, 25-520 partner limits assumed: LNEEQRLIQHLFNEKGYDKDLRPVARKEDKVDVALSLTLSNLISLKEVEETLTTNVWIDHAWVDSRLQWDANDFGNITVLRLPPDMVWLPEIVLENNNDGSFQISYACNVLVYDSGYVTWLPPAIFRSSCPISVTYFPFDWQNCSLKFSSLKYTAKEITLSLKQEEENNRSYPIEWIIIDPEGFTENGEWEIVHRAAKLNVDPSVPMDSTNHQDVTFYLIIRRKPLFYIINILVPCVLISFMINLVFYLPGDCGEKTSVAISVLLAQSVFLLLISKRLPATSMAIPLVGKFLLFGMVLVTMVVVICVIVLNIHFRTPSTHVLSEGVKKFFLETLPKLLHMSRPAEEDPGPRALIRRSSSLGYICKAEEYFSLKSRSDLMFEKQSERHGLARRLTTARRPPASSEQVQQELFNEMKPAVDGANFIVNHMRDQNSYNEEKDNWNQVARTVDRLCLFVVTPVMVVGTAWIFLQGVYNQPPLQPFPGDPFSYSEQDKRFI
UniProt P20782, 21-493 partner limits assumed: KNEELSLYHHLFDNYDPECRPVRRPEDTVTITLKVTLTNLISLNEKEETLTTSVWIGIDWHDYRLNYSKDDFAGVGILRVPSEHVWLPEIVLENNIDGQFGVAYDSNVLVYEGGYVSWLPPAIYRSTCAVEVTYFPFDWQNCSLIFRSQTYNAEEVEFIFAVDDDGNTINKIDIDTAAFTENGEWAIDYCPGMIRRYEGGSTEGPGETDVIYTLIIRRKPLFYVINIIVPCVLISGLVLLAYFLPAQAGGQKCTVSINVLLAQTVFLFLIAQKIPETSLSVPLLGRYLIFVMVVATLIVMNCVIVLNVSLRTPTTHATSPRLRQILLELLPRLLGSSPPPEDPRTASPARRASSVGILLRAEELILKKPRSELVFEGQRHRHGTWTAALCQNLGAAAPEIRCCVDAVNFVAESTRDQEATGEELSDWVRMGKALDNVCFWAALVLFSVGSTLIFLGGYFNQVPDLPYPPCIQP

As to `CC[C@H](C)[C@@H]1NC(=O)[C@H](CCCNC(=N)N)NC(=O)[C@H](CCCNC(=N)N)NC(=O)[C@@H](NC(=O)[C@H](Cc2ccc(O)cc2)NC(=O)[C@H](CCCNC(=N)N)NC(=O)[C@H](CCCNC(=N)N)NC(=O)[C@H](CCCNC(=N)N)NC(=O)[C@H](CCCNC(=N)N)NC(=O)[C@H](CC(=O)O)NC(=O)[C@H](Cc2ccc(O)cc2)NC(=O)[C@@H]2CCCN2C(=O)[C@H](CO)NC(=O)[C@H](CCCNC(=N)N)NC(=O)[C@@H]2CSSC[C@H](NC(=O)[C@@H](N)[C@@H](C)O)C(=O)N[C@@H](CCCNC(=N)N)C(=O)N[C@@H](CO)C(=O)N[C@@H](CO)C(=O)NCC(=O)N[C@@H](CCCNC(=N)N)C(=O)N[C@@H](Cc3ccc(O)cc3)C(=O)N2)CSSC[C@@H](C(=O)N[C@H](C(=O)O)C(C)C)NC(=O)[C@H](C)NC(=O)[C@H](CC(=O)O)NC(=O)[C@H](C)NC1=O`, the Ratio IC50 in experiment [1] was 186; in experiment [2], 7.5.
The matching figures for `CC[C@H](C)[C@@H]1NC(=O)[C@H](CCCNC(=N)N)NC(=O)[C@H](CCCNC(=N)N)NC(=O)[C@@H](NC(=O)[C@H](Cc2ccc(O)cc2)NC(=O)[C@H](CCCNC(=N)N)NC(=O)[C@H](CCCNC(=N)N)NC(=O)[C@H](CCCNC(=N)N)NC(=O)[C@H](CCCNC(=N)N)NC(=O)[C@H](CC(=O)O)NC(=O)[C@H](Cc2ccc(O)cc2)NC(=O)[C@@H]2CCCN2C(=O)[C@H](CO)NC(=O)[C@H](CCCNC(=N)N)NC(=O)[C@@H]2CSSC[C@H](NC(=O)[C@@H](N)[C@@H](C)O)C(=O)N[C@@H](CCCNC(=N)N)C(=O)N[C@@H](C)C(=O)N[C@@H](CO)C(=O)NCC(=O)N[C@@H](CCCNC(=N)N)C(=O)N[C@@H](Cc3ccc(O)cc3)C(=O)N2)CSSC[C@@H](C(=O)N[C@H](C(=O)O)C(C)C)NC(=O)[C@H](C)NC(=O)[C@H](CC(=O)O)NC(=O)[C@H]([C@@H](C)O)NC1=O`: 83.3 and 1.9.
The matching figures for `CC[C@H](C)[C@@H]1NC(=O)[C@H](CCCNC(=N)N)NC(=O)[C@H](CCCNC(=N)N)NC(=O)[C@@H](NC(=O)[C@H](Cc2ccc(O)cc2)NC(=O)[C@H](CCCNC(=N)N)NC(=O)[C@H](CCCNC(=N)N)NC(=O)[C@H](CCCNC(=N)N)NC(=O)[C@H](CCCNC(=N)N)NC(=O)[C@H](CC(=O)O)NC(=O)[C@H](Cc2ccc(O)cc2)NC(=O)[C@@H]2CCCN2C(=O)[C@H](CO)NC(=O)[C@H](CCCNC(=N)N)NC(=O)[C@@H]2CSSC[C@H](NC(=O)[C@@H](N)[C@@H](C)O)C(=O)N[C@@H](CCCNC(=N)N)C(=O)N[C@@H](CO)C(=O)N[C@@H](CO)C(=O)NCC(=O)N[C@@H](CCCNC(=N)N)C(=O)N[C@@H](Cc3ccc(O)cc3)C(=O)N2)CSSC[C@@H](C(=O)N[C@@H](C)C(=O)O)NC(=O)[C@H](C)NC(=O)[C@H](CC(=O)O)NC(=O)[C@H]([C@@H](C)O)NC1=O`: 113 and 3.2.
In the case of `CC[C@H](C)[C@@H]1NC(=O)[C@H](CCCNC(=N)N)NC(=O)[C@H](CCCNC(=N)N)NC(=O)[C@@H](NC(=O)[C@H](Cc2ccc(O)cc2)NC(=O)[C@H](CCCNC(=N)N)NC(=O)[C@H](CCCNC(=N)N)NC(=O)[C@H](CCCNC(=N)N)NC(=O)[C@H](CCCNC(=N)N)NC(=O)[C@H](CC(=O)O)NC(=O)[C@H](Cc2ccc(O)cc2)NC(=O)[C@@H]2CCCN2C(=O)[C@H](CO)NC(=O)[C@H](CCCNC(=N)N)NC(=O)[C@@H]2CSSC[C@H](NC(=O)[C@@H](N)[C@@H](C)O)C(=O)N[C@@H](CCCNC(=N)N)C(=O)N[C@@H](CO)C(=O)N[C@@H](CO)C(=O)NCC(=O)N[C@@H](CCCNC(=N)N)C(=O)N[C@@H](Cc3ccc(O)cc3)C(=O)N2)CSSC[C@@H](C(=O)N[C@H](C(=O)O)C(C)C)NC(=O)[C@H](C)NC(=O)[C@@H](C)NC(=O)[C@H]([C@@H](C)O)NC1=O`, the results for the Ratio IC50 in experiment [1] and in experiment [2] were 255 and 6.4, respectively.
On the same counts, the results for `CC[C@H](C)[C@@H]1NC(=O)[C@H](CCCNC(=N)N)NC(=O)[C@H](C)NC(=O)[C@@H]2CSSC[C@H](NC(=O)[C@H](Cc3ccc(O)cc3)NC(=O)[C@H](CCCNC(=N)N)NC(=O)CNC(=O)[C@H](CO)NC(=O)[C@H](CO)NC(=O)[C@H](CCCNC(=N)N)NC(=O)[C@@H](NC(=O)[C@@H](N)[C@@H](C)O)CSSC[C@@H](C(=O)N[C@H](C(=O)O)C(C)C)NC(=O)[C@H](C)NC(=O)[C@H](CC(=O)O)NC(=O)[C@H]([C@@H](C)O)NC1=O)C(=O)N[C@@H](CCCNC(=N)N)C(=O)N[C@@H](CO)C(=O)N1CCC[C@H]1C(=O)N[C@@H](Cc1ccc(O)cc1)C(=O)N[C@@H](CC(=O)O)C(=O)N[C@@H](CCCNC(=N)N)C(=O)N[C@@H](CCCNC(=N)N)C(=O)N[C@@H](CCCNC(=N)N)C(=O)N[C@@H](CCCNC(=N)N)C(=O)N[C@@H](Cc1ccc(O)cc1)C(=O)N2` are 23.2 and 1.
The matching figures for `CC[C@H](C)[C@@H]1NC(=O)[C@H](CCCNC(=N)N)NC(=O)[C@H](CCCNC(=N)N)NC(=O)[C@@H](NC(=O)[C@H](Cc2ccc(O)cc2)NC(=O)[C@H](CCCNC(=N)N)NC(=O)[C@H](CCCNC(=N)N)NC(=O)[C@H](CCCNC(=N)N)NC(=O)[C@H](CCCNC(=N)N)NC(=O)[C@H](CC(=O)O)NC(=O)[C@H](Cc2ccc(O)cc2)NC(=O)[C@@H]2CCCN2C(=O)[C@H](CO)NC(=O)[C@H](CCCNC(=N)N)NC(=O)[C@@H]2CSSC[C@H](NC(=O)[C@@H](N)[C@@H](C)O)C(=O)N[C@@H](CCCNC(=N)N)C(=O)N[C@@H](CO)C(=O)N[C@@H](C)C(=O)NCC(=O)N[C@@H](CCCNC(=N)N)C(=O)N[C@@H](Cc3ccc(O)cc3)C(=O)N2)CSSC[C@@H](C(=O)N[C@H](C(=O)O)C(C)C)NC(=O)[C@H](C)NC(=O)[C@H](CC(=O)O)NC(=O)[C@H]([C@@H](C)O)NC1=O`: 35.5 and 1.8.
The matching figures for `CC[C@H](C)[C@@H]1NC(=O)[C@H](CCCNC(=N)N)NC(=O)[C@H](CCCNC(=N)N)NC(=O)[C@@H]2CSSC[C@H](NC(=O)[C@H](Cc3ccc(O)cc3)NC(=O)[C@H](CCCNC(=N)N)NC(=O)CNC(=O)[C@H](CO)NC(=O)[C@H](CO)NC(=O)[C@H](CCCNC(=N)N)NC(=O)[C@@H](NC(=O)[C@@H](N)[C@@H](C)O)CSSC[C@@H](C(=O)N[C@H](C(=O)O)C(C)C)NC(=O)[C@H](C)NC(=O)[C@H](CC(=O)O)NC(=O)[C@H]([C@@H](C)O)NC1=O)C(=O)N[C@@H](CCCNC(=N)N)C(=O)N[C@@H](CO)C(=O)N[C@@H](C)C(=O)N[C@@H](Cc1ccc(O)cc1)C(=O)N[C@@H](CC(=O)O)C(=O)N[C@@H](CCCNC(=N)N)C(=O)N[C@@H](CCCNC(=N)N)C(=O)N[C@@H](CCCNC(=N)N)C(=O)N[C@@H](CCCNC(=N)N)C(=O)N[C@@H](Cc1ccc(O)cc1)C(=O)N2`: 104 and 1.2.
For the molecule `CC[C@H](C)[C@H]1NC(=O)[C@H](CCCNC(=N)N)NC(=O)[C@H](CCCNC(=N)N)NC(=O)[C@@H](NC(=O)[C@H](Cc2ccc(O)cc2)NC(=O)[C@H](CCCNC(=N)N)NC(=O)[C@H](CCCNC(=N)N)NC(=O)[C@H](CCCNC(=N)N)NC(=O)[C@H](CCCNC(=N)N)NC(=O)[C@H](CC(=O)O)NC(=O)[C@H](Cc2ccc(O)cc2)NC(=O)[C@@H]2CCCN2C(=O)[C@H](CO)NC(=O)[C@H](CCCNC(=N)N)NC(=O)[C@@H]2CSSC[C@H](NC(=O)[C@@H](N)[C@@H](C)O)C(=O)N[C@@H](C)C(=O)N[C@@H](CO)C(=O)N[C@@H](CO)C(=O)NCC(=O)N[C@@H](CCCNC(=N)N)C(=O)N[C@@H](Cc3ccc(O)cc3)C(=O)N2)CSSC[C@@H](C(=O)N[C@H](C(=O)O)C(C)C)NC(=O)[C@H](C)NC(=O)[C@H](CC(=O)O)NC(=O)[C@H]([C@@H](C)O)NC1=O`, the figures for the Ratio IC50 in experiment [1] and in experiment [2] were 26.2 and 3.7, respectively.
The matching figures for `CC[C@H](C)[C@@H]1NC(=O)[C@H](CCCNC(=N)N)NC(=O)[C@H](CCCNC(=N)N)NC(=O)[C@@H]2CSSC[C@H](NC(=O)[C@H](Cc3ccc(O)cc3)NC(=O)[C@H](CCCNC(=N)N)NC(=O)[C@H](C)NC(=O)[C@H](CO)NC(=O)[C@H](CO)NC(=O)[C@H](CCCNC(=N)N)NC(=O)[C@@H](NC(=O)[C@@H](N)[C@@H](C)O)CSSC[C@@H](C(=O)N[C@H](C(=O)O)C(C)C)NC(=O)[C@H](C)NC(=O)[C@H](CC(=O)O)NC(=O)[C@H]([C@@H](C)O)NC1=O)C(=O)N[C@@H](CCCNC(=N)N)C(=O)N[C@@H](CO)C(=O)N1CCC[C@H]1C(=O)N[C@@H](Cc1ccc(O)cc1)C(=O)N[C@@H](CC(=O)O)C(=O)N[C@@H](CCCNC(=N)N)C(=O)N[C@@H](CCCNC(=N)N)C(=O)N[C@@H](CCCNC(=N)N)C(=O)N[C@@H](CCCNC(=N)N)C(=O)N[C@@H](Cc1ccc(O)cc1)C(=O)N2`: 45.3 and 0.9.
In the case of `CC[C@H](C)[C@@H]1NC(=O)[C@H](CCCNC(=N)N)NC(=O)[C@H](CCCNC(=N)N)NC(=O)[C@@H](NC(=O)[C@H](Cc2ccc(O)cc2)NC(=O)[C@H](C)NC(=O)[C@H](CCCNC(=N)N)NC(=O)[C@H](CCCNC(=N)N)NC(=O)[C@H](CCCNC(=N)N)NC(=O)[C@H](CC(=O)O)NC(=O)[C@H](Cc2ccc(O)cc2)NC(=O)[C@@H]2CCCN2C(=O)[C@H](CO)NC(=O)[C@H](CCCNC(=N)N)NC(=O)[C@@H]2CSSC[C@H](NC(=O)[C@@H](N)[C@@H](C)O)C(=O)N[C@@H](CCCNC(=N)N)C(=O)N[C@@H](CO)C(=O)N[C@@H](CO)C(=O)NCC(=O)N[C@@H](CCCNC(=N)N)C(=O)N[C@@H](Cc3ccc(O)cc3)C(=O)N2)CSSC[C@@H](C(=O)N[C@H](C(=O)O)C(C)C)NC(=O)[C@H](C)NC(=O)[C@H](CC(=O)O)NC(=O)[C@H]([C@@H](C)O)NC1=O`, the Ratio IC50 is 126 in experiment [1] and 13.1 in experiment [2].
